A mixed list of measured activities; the numbers were collected in NIAID ChemDB.

Shared fields: target-level tests; species: Hepatitis C virus; target: NS3 protease; endpoint: Ki

Two numbers with a dash give a range or band.

SMILES,value
CC[C@@H](C=O)NC(=O)[C@@H]1C[C@@H](OCc2noc(-c3ccc(OC)cc3)n2)CN1C(=O)[C@@H](NC(=O)[C@@H](NC(=O)c1cnccn1)C(C)C)C(C)C,1–100 µM
C=C[C@@H]1C[C@]1(NC(=O)[C@@H]1C[C@@H](Oc2cc(-c3ccccc3)nc3cc(OC)ccc23)CN1C(=O)[C@@H](NC(=O)[C@@H](NC(C)=O)C1CCCCC1)C(C)(C)C)C(=O)O,0.001 µM
CCC(C=O)NC(=O)C1CC(OCc2ccc3ccccc3c2)CN1C(=O)C(NC(=O)C(NC(=O)c1cnccn1)C(C)C)C(C)C,1–100 µM
CCCC(NC(=O)[C@H](CC1CCCCC1)NC(=O)[C@@H](NC(=O)[C@H](CC(C)C)NC(=O)[C@@H](CCC(=O)O)NC(=O)[C@H](CC(=O)O)NOC(=O)CCC(=O)O)[C@H](C)CC)C(=O)C(F)(F)C(F)(F)F,0.12 µM
CC[C@@H](C=O)NC(=O)[C@@H]1C[C@@H](OC(=O)Nc2cc(Cl)nc(Cl)c2)CN1C(=O)[C@@H](NC(=O)[C@@H](NC(=O)c1cnccn1)C(C)C)C(C)C,1–100 µM
C=C[C@@H]1C[C@]1(NC(=O)[C@@H]1C[C@@H](Oc2cc(-c3ccccc3)nc3cc(OC)ccc23)C[C@H]1C(=O)N[C@H](C(=O)NC(C)(C)C)C(C)(C)C)C(=O)O,6.9 µM
CC[C@@H](C=O)NC(=O)[C@@H]1C[C@@H](OCc2ccccc2)CN1C(=O)[C@@H](NC(=O)c1ccccc1Br)C(C)C,1–100 µM
CCC(NC(=O)[C@@H]1[C@H]2CC[C@@H](F)[C@H]2CN1C(=O)[C@@H](NC(=O)[C@@H](NC(=O)c1cnccn1)C(C)C)C(C)C)C(=O)C(=O)NC1CC1,0.3 µM
CC[C@@H](C=O)NC(=O)[C@@H]1C[C@@H](OCc2ccccc2)CN1C(=O)[C@@H](NC(=O)[C@H](CC)NC(=O)c1cnccn1)C(C)C,>100 µM
CC[C@H](NC(=O)[C@H](CC1CCCCC1)NC(=O)[C@@H](NC(=O)[C@H](CC(C)C)NC(=O)[C@@H](CCC(=O)O)NC(=O)[C@H](CC(=O)O)NC(C)=O)[C@H](C)CC)C(=O)C(=O)/C=C/c1nccs1,2.3 µM
CC(C)(C)NC(=O)N[C@H](C(=O)C1CC2C([C@H]1C(=O)N[C@@H](CC1CCC1)C(=O)C(N)=O)C2(C)C)C(C)(C)C,0.023 µM
CCC[C@H](NC(=O)[C@@H]1C[C@@H](Oc2cc(-c3ccccc3)nc3cc(OC)ccc23)C[C@H]1C(=O)N[C@H](C(=O)N[C@H](C(=O)OC)C1CCCCC1)C(C)(C)C)C(=O)O,1.2 µM
CC(C)[C@H](NC(=O)[C@H](CCC(=O)O)NC(=O)[C@@H](N)CC(=O)O)C(=O)N[C@H](C(=O)N1CCC[C@H]1C(=O)NC1(B2O[C@@H]3CC4CC(C4(C)C)[C@]3(C)O2)CC1)C(C)C,1.6 µM
C=C[C@@H]1C[C@]1(NC(=O)[C@@H]1C[C@@H](Oc2cc(-c3ccccc3)nc3cc(OC)ccc23)C[C@H]1C(=O)N[C@H](C(=O)N[C@H](C(=O)N(C)C)C1CCCCC1)C(C)(C)C)C(=O)O,0.016 µM
C/C=C/C(=O)[C@H](CC)NC(=O)[C@H](CC1CCCCC1)NC(=O)[C@@H](NC(=O)[C@H](CC(C)C)NC(=O)[C@@H](CCC(=O)O)NC(=O)[C@H](CC(=O)O)NC(C)=O)[C@H](C)CC,0.2 µM
CCC[C@H](NC(=O)[C@@H]1C[C@@H](Oc2cc(-c3ccccc3)nc3cc(OC)ccc23)C[C@H]1C(=O)N[C@H](C(=O)N[C@H](C(=O)OC)C1CCCCC1)C(C)C)C(=O)O,2.3 µM
CC[C@@H](C=O)NC(=O)[C@@H]1C[C@@H](OC(=O)Nc2ccccc2)CN1C(=O)[C@@H](NC(=O)[C@@H](NC(=O)c1cnccn1)C(C)C)C(C)C,1–100 µM
C=C[C@@H]1C[C@]1(NC(=O)[C@@H]1C[C@@H](Oc2cc(-c3ccccc3)nc3cc(OC)ccc23)C[C@H]1C(=O)N[C@H](C(=O)N[C@H](C(=O)NC)C1CCCCC1)C(C)(C)C)C(=O)O,0.022 µM
CC[C@H](C)[C@H](NC(=O)[C@H](CC(C)C)NC(=O)[C@@H](CCC(=O)O)NC(=O)[C@H](CC(=O)O)NC(C)=O)C(=O)N[C@@H](CC1CCCCC1)C(=O)N[C@@H](CS)C(=O)O,1.54 µM

2 of the rows above, restated:

SMILES,value
C=C[C@@H]1C[C@]1(NC(=O)[C@@H]1C[C@@H](Oc2cc(-c3ccccc3)nc3cc(OC)ccc23)C[C@H]1C(=O)N[C@H](C(=O)NC(C)(C)C)C(C)(C)C)C(=O)O,6.9 µM
CCC(C=O)NC(=O)C1CC(OCc2ccc3ccccc3c2)CN1C(=O)C(NC(=O)C(NC(=O)c1cnccn1)C(C)C)C(C)C,1–100 µM

Conditions beyond the fields shown may differ between rows.